The values below come from ChEMBL document CHEMBL1268855 (J Nat Prod, 2010).

The test relates to Influenza A virus (A/California/08/2009(H1N1)). Put plainly: Selectivity ratio of IC50 for Influenza A virus (A/California/08/2009(H1N1)) wild type neuraminidase to IC50 for oseltamivir-resistant Influenza A virus (A/California/08/2009(H1N1)) neuraminidase H274Y mutant.

For the molecule `COc1cc(O)c(C)c(O)c1C(=O)/C=C/c1ccccc1`, the Selectivity ratio stood at 3.6.

Take `COc1c(C)c(O)c(C)c(O)c1C(=O)/C=C/c1ccccc1O`: the Selectivity ratio turned out to be 4.23.

For `COc1c(C)c(O)c(C)c(O)c1C(=O)/C=C/c1ccccc1`, the Selectivity ratio came out at 7.

Consider `COc1c(C)c(O)c(C)c(O)c1C(=O)/C=C/c1ccc(O)cc1`, for which the Selectivity ratio was 2.46.
